Measurements from “University of Dundee, Small-Polar-MMV Screening Library” (2021), ChEMBL document CHEMBL3988442.

Mtb cholesterol medium: 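Whole-cell growth test on Mycobacterium tuberculosis, read after 4 days in a medium based on cholesterol and the lipid DPPC; the read-out is not stated. Tested at 500 µM. The record gives no direction; compounds that gave an IC50 in retests scored well above the rest, so higher reads as more growth inhibition. Of about 18,000 compounds tested this way, about 900 (5%) reached 50% or more in at least one test.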
Mtb glucose medium: 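Phenotypic screen: M. tuberculosis growth, glucose 7H9 medium, 3 days; the read-out is not stated. Tested at 500 µM. The record gives no direction; compounds that gave an IC50 in retests scored well above the rest, so higher reads as more growth inhibition. Of about 18,000 compounds tested this way, about 1,400 (7.9%) reached 50% or more in at least one test.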

The filed quantity is “Percent Effect” (%). The record does not define 0% and 100%; most values in the screen are far below 50% and negative numbers occur (in some assays of this library far below -100). The entries come from a sample that favours strong results.

{"smiles": "Cc1ccc2ncc(CCN)cc2c1", "Mtb cholesterol medium": 23.78, "Mtb glucose medium": 47.55}
{"smiles": "CC(C)N1CCCC(N(C)CC(C)(CO)CO)C1=O", "stereo": "stereo not shown", "Mtb glucose medium": -6.404}
{"smiles": "NCC1CSc2ccccc21", "stereo": "stereo not shown", "Mtb glucose medium": 16.94}
{"smiles": "CC(C)NS(=O)(=O)NC1CCCCNC1=O", "stereo": "stereo not shown", "Mtb glucose medium": 9.142}
{"smiles": "CCC1(CNC(=O)NCc2nnnn2C2CC2)CCC1", "Mtb glucose medium": 13.48}
{"smiles": "CC(C)(C)SCC(=O)NCC(C)(C)N1CC[S+]([O-])CC1", "Mtb glucose medium": 3.251}
{"smiles": "Cc1nccc(NC(=O)C2CN(C)CCO2)c1Cl", "stereo": "stereo not shown", "Mtb cholesterol medium": -10.95, "Mtb glucose medium": -7.12}
{"smiles": "CC(C)C(NC(=O)CCn1cccn1)c1cccnc1", "stereo": "stereo not shown", "Mtb glucose medium": 0.1159}
{"smiles": "O=C(NCC(=O)N1CCCCCC1)c1ccco1", "Mtb cholesterol medium": 13.22}
{"smiles": "CC(C)N(C)S(=O)(=O)NCCCN(C)c1ccccc1", "Mtb cholesterol medium": 77.47, "Mtb glucose medium": 79.04}
{"smiles": "N#Cc1ccc(NCC2(O)CCOCC2)cc1Cl", "Mtb cholesterol medium": 16.44}
{"smiles": "CNC1CCN(C(C)c2ccccn2)CC1", "stereo": "stereo not shown", "Mtb glucose medium": -0.6144}
{"smiles": "CC(C)=CCO[C@@H]1COCC[C@H]1NS(=O)(=O)C1CC1", "Mtb glucose medium": 18.02}
{"smiles": "CC1(C)CN(C(=O)c2cnc3ccccn23)CCS1", "Mtb glucose medium": -15.3}
{"smiles": "CNC(=O)C1CCN(S(C)(=O)=O)c2cc(C)ccc2O1", "stereo": "stereo not shown", "Mtb glucose medium": 10.8}
{"smiles": "Cc1ccc(OCC(N)=O)cc1C", "Mtb glucose medium": 29.78}
{"smiles": "Cc1nn(CCO)c(NCc2cccc(F)c2)c1C", "Mtb glucose medium": 50.58}
{"smiles": "COC(=O)C(CN)c1ccc(Cl)cc1", "stereo": "stereo not shown", "Mtb glucose medium": 8.82}
{"smiles": "Cc1cc(NC(=O)NCC2CCS(=O)(=O)C2)no1", "stereo": "stereo not shown", "Mtb glucose medium": -11.5}
{"smiles": "O=C1NC(=O)[C@@H]2CNC[C@H]12", "Mtb cholesterol medium": -6.128}
{"smiles": "CCC(CO)NC(=O)c1ccc(Cl)c(OC)c1", "stereo": "stereo not shown", "Mtb glucose medium": -2.992}
{"smiles": "CC(=O)c1ccc(S(=O)(=O)N[C@H]2CCCNC2)cc1", "Mtb glucose medium": -1.354}
{"smiles": "CN(C)c1ccc(CN2CCN(C)C(CO)C2)cn1", "stereo": "stereo not shown", "Mtb glucose medium": 8.609}
{"smiles": "NC(=O)NC(=O)CSc1nncs1", "Mtb glucose medium": 6.287}
{"smiles": "CC(C)CC(O)CNC(=O)c1cc(F)ccc1F", "stereo": "stereo not shown", "Mtb glucose medium": 72.78}
{"smiles": "CCCSCC(=O)NCc1cc(O)nc(C)n1", "Mtb glucose medium": 5.538}
{"smiles": "CN[C@@H]1CN(C(=O)OC(C)(C)C)C[C@H]1O", "Mtb cholesterol medium": 2.761}
{"smiles": "CN(CC(=O)N(C)C)Cc1nc2ccccc2o1", "Mtb glucose medium": 35.56}
{"smiles": "COCCNc1ncnc2c1cnn2CCC#N", "Mtb cholesterol medium": 1.991, "Mtb glucose medium": 26.06}
{"smiles": "CSCC(CCO)Nc1ncccc1C(F)(F)F", "stereo": "stereo not shown", "Mtb cholesterol medium": 33.48, "Mtb glucose medium": 60.41}
{"smiles": "c1ccc(CNC2CCCNCC2)cc1", "stereo": "stereo not shown", "Mtb cholesterol medium": 12.87}
{"smiles": "NS(=O)(=O)CC1CCN(C(=O)c2ccco2)C1", "stereo": "stereo not shown", "Mtb cholesterol medium": -12.91}
{"smiles": "NC(=O)CN1CCC(C(=O)Nc2ccc(Br)cn2)CC1", "Mtb glucose medium": 18.67}
{"smiles": "O=C(C1CCC1)N1CCc2ccc(O)cc2C1", "Mtb glucose medium": 48.98}
{"smiles": "CC(C)c1nnc(C2CNCCO2)o1", "stereo": "stereo not shown", "Mtb glucose medium": 13.18}
{"smiles": "Cc1cnc(NCc2cccn2C)s1", "Mtb glucose medium": -2.998}
{"smiles": "CCCn1ccnc1CNC(=O)[C@H]1CC[C@@H](O)CC1", "Mtb cholesterol medium": -11.51}
{"smiles": "CCc1cc(C)c(C(=O)NC2CNC[C@@H]2OC)o1", "stereo": "stereo partly shown", "Mtb glucose medium": 16.65}

The first 4 entries again:

For Cc1ccc2ncc(CCN)cc2c1 the result was Mtb cholesterol medium: 23.78%; Mtb glucose medium: 47.55%.
For CC(C)N1CCCC(N(C)CC(C)(CO)CO)C1=O (stereo not shown) the result was Mtb glucose medium: -6.404%.
For NCC1CSc2ccccc21 (stereo not shown) the result was Mtb glucose medium: 16.94%.
For CC(C)NS(=O)(=O)NC1CCCCNC1=O (stereo not shown) the result was Mtb glucose medium: 9.142%.